Assay results as given in the supplement of paper PMC3578754.

Legend:
Assay in all cases: fold change of IC50 against reference virus; higher = more resistant; Cell-culture drug susceptibility tests of virus bearing the protease of each isolate, gathered from many studies.
[1] = compound: CC(C)(C)NC(=O)[C@@H]1CN(Cc2cccnc2)CCN1C[C@@H](O)C[C@@H](Cc1ccccc1)C(=O)N[C@H]1c2ccccc2C[C@H]1O [indinavir]
[2] = compound: CC(C)(C)NC(=O)[C@@H]1C[C@@H]2CCCC[C@@H]2CN1C[C@@H](O)[C@H](Cc1ccccc1)NC(=O)[C@H](CC(N)=O)NC(=O)c1ccc2ccccc2n1 [saquinavir]
[3] = compound: CC(C)c1nc(CN(C)C(=O)N[C@H](C(=O)N[C@@H](Cc2ccccc2)C[C@H](O)[C@H](Cc2ccccc2)NC(=O)OCc2cncs2)C(C)C)cs1 [ritonavir]
[4] = compound: Cc1c(O)cccc1C(=O)N[C@@H](CSc1ccccc1)[C@H](O)CN1C[C@H]2CCCC[C@H]2C[C@H]1C(=O)NC(C)(C)C [nelfinavir]

Row | Test System | fold change of IC50 against reference virus [1] | fold change of IC50 against reference virus [2] | fold change of IC50 against reference virus [3] | fold change of IC50 against reference virus [4]
1 | HIV-1 isolate 854 (protease changes: Q18R M36I Q58E L63T A71T, study 57) | 1 | 1 | 1 | 1
2 | HIV-1 isolate 861 (protease changes: L10F I13V K20T D30N E35D M36I K45Q M46I I54V I62V L63Q I64V I72V N88D, study 120) | 6.1 | 13.5 | 11.9 | 500
3 | HIV-1 isolate 870 (protease changes: L10I L63A, study 110) | 1.2 | 1.2 | 2.1 | 2
4 | HIV-1 isolate 871 (protease changes: L10I I15V V32I P39S R41K M46L L63P K70R A71V V82A, study 127) | 4.3 | 0.7 | 16.5 | 4.5
5 | HIV-1 isolate 877 (protease changes: I13V K20I E35D M36I I54V L63P I66F A71V V82T, study 120) | 25.3 | 3.2 | 27.8 | 27.8
6 | HIV-1 isolate 893 (protease changes: I13V K20R M36I I62V L63P G73S L90M, study 57) | 5 | 5 | 8 | 5
7 | HIV-1 isolate 901 (protease changes: L5F T12I I13V N37D L63P A71T V77I L90M, study 57) | 2 | 2 | 11 | 3
8 | HIV-1 isolate 922 (protease changes: I15V N37C I54V I62V L63P V82A I93L, study 119) | 8.3 | 0.9 | 22.1 | 11.5
9 | HIV-1 isolate 928 (protease changes: I62V L63P A71V L90M, study 57) | 2 | 5 | 4 | 2
10 | HIV-1 isolate 938 (protease changes: D60E L63A, study 15) | 1 | 1 | 0.9 | 1.1
11 | HIV-1 isolate 942 (protease changes: L10V D30N M36I L63P A71T N88D L90M, study 66) | 2.8 | 9.6 | 8.2 | 160
12 | HIV-1 isolate 953 (protease changes: T12S I15V L19I M36I R41K Q61E H69K L89M I93L, study 139) | 2 | 1 | 1 | 1
13 | HIV-1 isolate 962 (protease changes: L10F I13V L19T D30N R41K L63P N88D L90M, study 66) | 1.7 | 5 | 2.5 | 47
14 | HIV-1 isolate 968 (protease changes: L63S K70R, study 54) | 0.4 | 0.5 | 0.6 | 0.5
15 | HIV-1 isolate 978 (protease changes: D30N, study 61) | 0.1 | 0.3 | 0.2 | 6
16 | HIV-1 isolate 1012 (protease changes: L10I V11I I13V G16E E35D L63T I64V C67Y V77I V82F, study 119) | 2.7 | 0.3 | 8 | 4.3
17 | HIV-1 isolate 1030 (protease changes: L10I K20R M36I I54V L63P A71V V82T I84V L90M, study 110) | 20.3 | 91 | 100 | 34.7
18 | HIV-1 isolate 1047 (protease changes: L10I K20R E35D M36I M46I F53L I54V D60E L63P A71V I84V L90M I93L, study 145) | 12 | 132 | 139 | 37
19 | HIV-1 isolate 1057 (protease changes: L10F L24I E35D M36I M46L I54V L63P I64V V82A, study 8) | 9.3 | 2.4 | 37.9 | 27.4
20 | HIV-1 isolate 1075 (protease changes: M36I V82F, study 38) | 1 | 1 | 5 | 6
21 | HIV-1 isolate 1077 (protease changes: L10I K14R R41K G48V L63Q I64V V82A, study 120) | 1.6 | 5.5 | 7.3 | 3
22 | HIV-1 isolate 1106 (protease changes: L10I R57G L63P A71V I84V L90M, study 110) | 3.6 | 9 | 12 | 6.2
23 | HIV-1 isolate 1128 (protease changes: L10I M46I R57G L63P A71V I84V L90M, study 110) | 4.2 | 4.9 | 11.3 | 11.5
24 | HIV-1 isolate 1131 (protease changes: D30N A71V, study 61) | 0.6 | 0.3 | 0.2 | 30.6
25 | HIV-1 isolate 1151 (protease changes: L10R T12I L24I N37D M46I L63P A71V V82T I84V, study 68) | 11.4 | 3.2 | 1.4 | 4.5
26 | HIV-1 isolate 1169 (protease changes: none, study 38) | 1 | 1 | 1 | 1
27 | HIV-1 isolate 1173 (protease changes: L10I I13V I15V D30N I62V L63I A71T I93L, study 89) | 1 | 1 | 1 | 5

Row | Test System | fold change of IC50 against reference virus [1] | fold change of IC50 against reference virus [2] | fold change of IC50 against reference virus [3] | fold change of IC50 against reference virus [4]
28 | HIV-1 isolate 1189 (protease changes: T74S V82A, study 57) | 1 | 1 | 1 | 1
29 | HIV-1 isolate 1202 (protease changes: L10I K20R M36I M46L I54V L63P A71V V82A L90M, study 110) | 32.2 | 29.1 | 203 | 122
30 | HIV-1 isolate 1208 (protease changes: K20R D30N M36I F53L I54V L63P A71V N88D L90M, study 66) | 8.4 | 72 | 35 | 550
31 | HIV-1 isolate 1243 (protease changes: L10R M46I R57G L63P V82T I84V, study 110) | 3.9 | 1.7 | 22.4 | 3.6
32 | HIV-1 isolate 1253 (protease changes: N37C L63Q I64V, study 15) | 0.7 | 0.7 | 0.6 | 0.7
33 | HIV-1 isolate 1293 (protease changes: L10F K20R D30N V32I M36I M46I I47V I54V L63P A71V V82A N88D L90M, study 66) | 25 | 290 | 275 | 550
34 | HIV-1 isolate 1297 (protease changes: L10I I13V K20I E35D M36I I54V L63P I66F A71V V82T, study 119) | 24 | 4.7 | 47.1 | 27.1
35 | HIV-1 isolate 1298 (protease changes: E35D, study 54) | 0.5 | 0.7 | 0.8 | 0.8
36 | HIV-1 isolate 1312 (protease changes: L10V I15V K20R E21K M36I N37D R41K D60N Q61E I62V C67E H69K I72V L89M I93L, study 114) | 0.5 | 0.6 | 0.4 | 0.5
37 | HIV-1 isolate 1316 (protease changes: L10F V11I K20I E35D M36I R41K M46I I54M I62V L63P A71I I84V I85V L90M I93L, study 123) | 22 | 29 | 55 | 38
38 | HIV-1 isolate 1333 (protease changes: L10I K20I E35D M36I R41K M46I I62V L63P A71I I72T G73S I84V L90M I93L, study 123) | 38 | 89 | 30 | 68
39 | HIV-1 isolate 1338 (protease changes: I13V D30N E35D M36I G52S I62V L63P I64L, study 89) | 1 | 2 | 1 | 70
40 | HIV-1 isolate 1345 (protease changes: M46I R57G L63P V82T I84V, study 110) | 2.8 | 1 | 16.1 | 2.2
41 | HIV-1 isolate 1353 (protease changes: K20R D30N M36I L63H A71V, study 110) | 0.9 | 0.4 | 0.9 | 11.1
42 | HIV-1 isolate 1363 (protease changes: E35D M36I L63P, study 89) | 1 | 1 | 1 | 1
43 | HIV-1 isolate 1364 (protease changes: L10F D30N L63P A71T V77I N88D L90M, study 66) | 5.2 | 21 | 10.2 | 140
44 | HIV-1 isolate 1388 (protease changes: K14R L63P, study 54) | 1.3 | 1.3 | 2.8 | 2.5
45 | HIV-1 isolate 1406 (protease changes: T12S I15V L19I M36I R41K L63V H69K L89M I93L, study 139) | 1 | 1 | 3 | 1
46 | HIV-1 isolate 1422 (protease changes: I13V E35D M36I I62V L63P I64L, study 89) | 1 | 1 | 1 | 1
47 | HIV-1 isolate 1432 (protease changes: L63P K70R, study 54) | 1.4 | 1.1 | 1.5 | 1.4
48 | HIV-1 isolate 1441 (protease changes: L10V M36I M46I G48V D60E L63Q I64V I72V L90M, study 57) | 1 | 7 | 3 | 2
49 | HIV-1 isolate 1443 (protease changes: K14R R41K L63S I64V, study 54) | 0.6 | 0.5 | 0.8 | 0.6
50 | HIV-1 isolate 1450 (protease changes: L10I M36I L63S L90M, study 110) | 0.9 | 0.9 | 1.8 | 2.3
51 | HIV-1 isolate 1461 (protease changes: V82A, study 38) | 1 | 1 | 2 | 2
52 | HIV-1 isolate 1472 (protease changes: Q18H L19I M46L L63P L90M Q92R I93L C95F, study 119) | 7.5 | 2.6 | 4.2 | 9.3
53 | HIV-1 isolate 1500 (protease changes: V82T, study 38) | 1 | 1 | 3 | 3

Fold change is the IC50 on the isolate divided by the IC50 on a reference virus; 1 = unchanged, higher = more resistant. Changes are given against the subtype B consensus. No active / inactive call. The values were gathered from many studies (numbered anew) with different assays, which the source does not name. Most viruses are clinical isolates; some are laboratory strains or clones with known resistance changes. Isolates with mixed residues are left out; stretches that were not sequenced show no change. Round top values that many isolates share are read here as limits; other very high values and 0.1 may be limits too. The protease changes I3V and N37S, insertions and deletions cannot be read from the source.
